The assay concerns SARS-CoV-2. The assay can be described thus: microbe, parasite or virus in culture. The assay is classed as cell-based.

Where two headings read alike, the source gives them in different places.

Take `Cc1c(-c2ccc(-c3ccccc3F)cc2)nc2ccc(F)cc2c1C(=O)O` [brequinar, 6-fluoro-2-(2′-fluoro-1,1′ biphenyl-4-yl)-3-methyl-4-quinoline carboxylic acid]: the EC50 reads like this: (Severe acute respiratory syndrome coronavirus 2, Vero C1008, read-out: EC50, anti-SARS-CoV-2 activity) around 200 nM; (Severe acute respiratory syndrome coronavirus 2, Vero C1008, read-out: EC50: Concentration inhibiting 50% of the maximum CPE-protection effect of the compound (Emax)) around 200 nM. In addition, the IC50 (Severe acute respiratory syndrome coronavirus 2, Vero C1008, read-out: IC50: Concentration inhibiting 50% of the virus-induced CPE compared to the no infection control) was determined as 200 nM.

The values above are taken from US20210290651A1, “METHODS OF TREATING VIRAL INFECTIONS USING INHIBITORS OF NUCLEOTIDE SYNTHESIS PATHWAYS” (priority 2020, published 2021).
